Measured values reported in the supplement of paper PMC9931576.
Changes are numbered by the printed parent chain. Human monoclonal antibodies against the spike receptor-binding domain (heavy:light variable regions). IC50 against pseudoviruses bearing the spike of naturally observed variants; lower = stronger; >10 µg/ml means not reached at the top dose. No active / inactive call. The stated detection limit is 0.0005 µg/ml; values near or below 0.001 µg/ml lie at the floor of the assay.

B1: BD56-612 (protein)
chain 1: QVTLRESGPALVKPTQTLTLTCTFSGVSLTTSEMYVSWIRQPPGKALEWLALIGWDDDKYYSTSLKTRLTISRDTSKNQVLLTVTNVDPADTATYYCARSPSLYESSGYYYQYYFAYWGRGTLVTVSS
chain 2: EIVLTQSPGTLSLSPGEKATLSCRASQSVSSSYLAWYQQKPGQAPRLLMYGASSRATGIPDRFSGSGSGTDFTLTISRLEPEDFAVYYCQQYGGSPLTFGQGTKVEIK
B2: BD56-596 (protein)
chain 1: QVHLVQSGAEVKKPGSSVKVSCKASGGTFSSYAINWVRQAPGQGLEWMGGIIPIFGTTNYAQKFQGRVTITADEFTSTAYMELSSLRSEDTAIYYCARDFEVSPLYGMDVWGQGTTVTVSS
chain 2: DTQMTQSPSSLSASVGDSVTITCRASQSISSYLNWYQQKPGKAPKLLIYAASSLDSGVPSRFSGSGSGTDFTLTISSLQPEDFATYYCQQSYSSPPITFGQGTRLEIK
B3: BD56-619 (protein)
chain 1: EVQLVESGGGSVQPGGSLRLSCAASGITVSSNYMSWVRQAPGKGLEWVSVIYPGGTTDYLDSVKGRFTISRHDSNLYLVLNSLRTEDTAVYFCARDLGPYGLDVWGQGTTVTVSS
chain 2: IQLTQSPSSLSASVGDRVTITCRASQGISSELAWYQQKPGQAPKLLIYDASTLQSGVPSRFSGSGSATEFTLTISSLQPDDFATYYCQEVNVYPPPFGGGTKVEIK
B4: BD56-599 (protein)
chain 1: QVQLVQSGAELKKPGASVKVSCKASGYTFTSHDISWVRQAPGQGLEWMGWISAYNGDTNYAQKLQGRVTMTTDTSTSTAYMELRSLRSDDTAVYYCARATWEMPTIPTPTSVDYWGQGTLVTVSS
chain 2: SYELTQPPSVSVSPGQTARITCSGAAFPMQYAYWYQQKPGQAPVVVIYKDTERPSGIPERFSGSSSGTTVTLTISGVQAEDEADYYCQSADSRAWVFGGGTKLTVL
B5: BD56-608 (protein)
chain 1: EVQLVQSGAEVKKPGESLRISCKGSGYHFNRYWINWVRQMPGKGLEWMGRIDPSDSYTNYSPSFQGHVTISVDKSISTAYLQWSSLQASDTAMYYCARQVYFGESFGLGYWGQGTLVTVSS
chain 2: QTVVTQEPSLTVSPGGTVTLTCASSTGAVTIGFYPNWFQQKPGQAPRALIYSTSNKHSWTPARFSGSLLGGKAALTLSGVQPEDEGEYYCLLYYGASWVFGGGTKLTVL
B6: BD56-614 (protein)
chain 1: EVQLVESGGGLIQPGESLRLSCAASGFTVSSNYVSWVRQAPGKGLEWVSVIYSGGRTFYADSVKARFTISRDNFKNTVYLQMDSLRAEDTAVYYCARGEPLKGISSYGDDYYFDSWGQGTLVTVSS
chain 2: SSELTQPPSVSVSPGQTARITCSGDTLPMQYVYWYQQKAGQAPALVIYKDTERPSGIPERFSGSSSGTAVMLTIRGVQAEDEAVYYCQSADSSGVVFGGGTKLTVL
B7: BD56-627 (protein)
chain 1: EVQLVESGGGLVQPGGSLRLSCAASGFTFSNFDMHWVRQPTGKGLEWVSTIGTAGDAYYPDSVKGRFTISRENGRNSLYLQMNSLRAEDTAVYYCARVAYVNSAFYSHLDSWGQGTLVTVSS
chain 2: DIQMTQSPSFLSASVGDRVTITCRASQSIGNYLNWYQQKPGKAPKLLIYAASSLQSGVPSRFSGSGSGTDFTLTISSLQLEDFATYYCQQSYITTGYTFGQGTKLGIK
B8: BD56-610 (protein)
chain 1: QVQLVQSGAEAKKPGSSLKVSCKASGGTFSSYSINWVRQAPGQGLEWMGKIIPILGIANYAQKFQGRVTITADKSTSTAYMELSSLRSEDTATYYCAREMAMAGYNTEYFQYWGQGTLVTVSS
chain 2: QSVLTQPPSVSGAPGQRVTISCTGSSSNIGAGYDVHWYQQLPGTAPKLLIYGNSNRPSGVPDRFSGSKSDTSASLAITGLQAEDEADYYCQSYDSSLSELLFGGGTKLTVL
B9: BD56-633 (protein)
chain 1: QVQLVQSGAEVKKPGSSLKVSCKASGGTFSSYIIIWVRQGPGQGLEWMGEIIPILGTTNYAQKFQGRLTITADKSTSTAYMELSSLRSEDTAVYYCARVVGYSGSGSSYYFDSWGQGTLVTVSS
chain 2: B8 chain 2 with S26N, G52V, S54N, D70G, E99G, L100S, L101V
B10: BD56-623 (protein)
chain 1: QAQLVESGGGVVQPGRSLRLSCAASGFIFSSYAMHWVRQAPGKGLEWVAVISYDGSNKYYAKSVKGRFTISRDNFKNTLYLQMNSLRAEDTAVYDCARDMNAHPSVYNYGMDVWGQGTTVTVSS
chain 2: B8 chain 2 with N53D, S54I, K68N, D70G, E99G, L100W, L101V
B11: BD56-603 (protein)
chain 1: QVQLVQSGAEVKKPGASVKVSCKASGYTFTSYYMHWVRQAPGQGLEWMGIINPSGGSTSYAQKFQGRVTMTRDTSTSTVYMELSSLRSEDTAVYYCARDHVLEVVVIDYYYGMDVWGQGTTVTVSS
chain 2: QSALTQPASVSGSPGQSITISCTGTSSDVGGYNYVSWYQQHPGKAPKLMIYDVSKRPSGVSNRFSGSKSGNTASLTISGLQAEDEADYYCSSYTSSSTLNWVFGGGTKLTVL
B12: BD56-631 (protein)
chain 1: QVQLVQSGAEVKKPGSSVKVSCKASGGTFSSYSINWVRQAPGQGLEWMGRTIPILGVANHAQKFQGRVTIIADKSTTTAYMELSSLKSEDTAVYYCAGGFGAGDYDAFDIWGQGTMVTVSS
chain 2: DIHMTQSPSSLSTSVGDRVTLTCRASQSISYFLNWYQQKPGKAPRLLIYAASNLQSGVPSRFSGSGSGTDFTLTISSLQPEDFATYYCQESYSTSFTFGPGTKVDIK

target: SARS-CoV-2 Omicron BA.1 spike pseudovirus; test: pseudovirus neutralization IC50; higher = weaker neutralization
Description: (§1)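 Single-round VSV luciferase pseudovirus mixed with antibody dilutions for 1 h and put on Huh-7 cells for about a day; IC50 from the dose curve.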

| Binder | pseudovirus neutralization IC50 |
| --- | --- |
| B1 | 3.79 µg/mL |
| B2 | 0.279 µg/mL |
| B3 | 0.001 µg/mL |
| B4 | > 10 µg/mL |
| B5 | 0.115 µg/mL |
| B6 | > 10 µg/mL |
| B7 | 4.81 µg/mL |
| B8 | 0.0391 µg/mL |
| B9 | 0.132 µg/mL |
| B10 | 0.443 µg/mL |
| B11 | 7.63 µg/mL |
| B12 | 0.958 µg/mL |

target: SARS-CoV-2 Omicron BA.2 spike pseudovirus; test: as above
Description: as §1

| Binder | pseudovirus neutralization IC50 |
| --- | --- |
| B1 | 3.91 µg/mL |
| B2 | 0.226 µg/mL |
| B3 | 0.00111 µg/mL |
| B4 | > 10 µg/mL |
| B5 | 0.118 µg/mL |
| B6 | > 10 µg/mL |
| B7 | 6.8 µg/mL |
| B8 | 0.0329 µg/mL |
| B9 | 0.13 µg/mL |
| B10 | 0.362 µg/mL |
| B11 | > 10 µg/mL |
| B12 | 1.5 µg/mL |

target: SARS-CoV-2 Omicron BA.2.75 spike pseudovirus; test: as above
Description: as §1

| Binder | pseudovirus neutralization IC50 |
| --- | --- |
| B1 | 2.19 µg/mL |
| B2 | 0.232 µg/mL |
| B3 | 0.241 µg/mL |
| B4 | > 10 µg/mL |
| B5 | 0.136 µg/mL |
| B6 | > 10 µg/mL |
| B7 | 5.33 µg/mL |
| B8 | 0.0379 µg/mL |
| B9 | 0.134 µg/mL |
| B10 | 0.414 µg/mL |
| B11 | > 10 µg/mL |
| B12 | 1.27 µg/mL |

target: SARS-CoV-2 Omicron BA.5 spike pseudovirus; test: as above
Description: as §1

| Binder | pseudovirus neutralization IC50 |
| --- | --- |
| B1 | 2.96 µg/mL |
| B2 | > 10 µg/mL |
| B3 | 0.0175 µg/mL |
| B4 | > 10 µg/mL |
| B5 | > 10 µg/mL |
| B6 | > 10 µg/mL |
| B7 | 6.95 µg/mL |
| B8 | > 10 µg/mL |
| B9 | > 10 µg/mL |
| B10 | 0.544 µg/mL |
| B11 | > 10 µg/mL |
| B12 | 8.09 µg/mL |

target: SARS-CoV-2 Omicron BQ.1.1 spike pseudovirus; test: as above
Description: as §1

| Binder | pseudovirus neutralization IC50 |
| --- | --- |
| B1 | 3.41 µg/mL |
| B2 | > 10 µg/mL |
| B3 | > 10 µg/mL |
| B4 | > 10 µg/mL |
| B5 | > 10 µg/mL |
| B6 | > 10 µg/mL |
| B7 | 9.44 µg/mL |
| B8 | > 10 µg/mL |
| B9 | > 10 µg/mL |
| B10 | > 10 µg/mL |
| B11 | > 10 µg/mL |
| B12 | > 10 µg/mL |

target: SARS-CoV-2 Omicron XBB spike pseudovirus; test: as above
Description: as §1

| Binder | pseudovirus neutralization IC50 |
| --- | --- |
| B1 | 3.45 µg/mL |
| B2 | > 10 µg/mL |
| B3 | > 10 µg/mL |
| B4 | > 10 µg/mL |
| B5 | > 10 µg/mL |
| B6 | > 10 µg/mL |
| B7 | 9.43 µg/mL |
| B8 | 4.95 µg/mL |
| B9 | 2.98 µg/mL |
| B10 | > 10 µg/mL |
| B11 | > 10 µg/mL |
| B12 | 2.01 µg/mL |

target: SARS-CoV-2 early D614G spike pseudovirus; test: as above
Description: as §1

| Binder | pseudovirus neutralization IC50 |
| --- | --- |
| B1 | 4.08 µg/mL |
| B2 | 0.205 µg/mL |
| B3 | 0.00494 µg/mL |
| B4 | > 10 µg/mL |
| B5 | 0.0368 µg/mL |
| B6 | > 10 µg/mL |
| B7 | 3.83 µg/mL |
| B8 | 0.0363 µg/mL |
| B9 | 0.374 µg/mL |
| B10 | 1.28 µg/mL |
| B11 | > 10 µg/mL |
| B12 | > 10 µg/mL |
